Measured values from several laboratories, pooled; numbers as filed in NIAID ChemDB.

All rows: growth or infection tests; species: Mycobacterium avium; measure: MIC

Blank or dashed fields: not listed here. Conditions beyond the fields shown may differ between rows.

smiles,strain or isolate,setting,value
CN1CCN(Cc2ccc(NC/C=C/c3ccccc3)cc2)CC1,103317,,8 µg/mL
Cc1ccc(CSc2nnn(-c3ccccc3)n2)cc1,CNCTC MY330/88,,250 µM
CN1CCN(Cc2cccc(N=C/C=C/c3ccccc3)c2)CC1,103317,,32 µg/mL
CCCCCCCOc1ccc(NC(=O)OCCN2CCCCCC2)cc1,MY330/88,,8 µM
CCOC1Oc2ccc(C)cc2C(=O)/C1=C\Nc1ccc(C(=O)O)c(O)c1,MY 80/72,,25 µg/mL
CN[C@@H]1[C@H](O[C@H]2[C@H](O[C@H]3[C@H](O)[C@@H](O)[C@H](N=C(N)N)[C@@H](O)[C@@H]3N=C(N)N)O[C@@H](C)[C@]2(O)C=O)O[C@@H](CO)[C@H](O)[C@H]1O,299,,4 µg/mL
COc1ccc(-n2nnc(SCc3ccccc3)n2)cc1,CNCTC MY330/88,,62.5 µM
OCCN1CCN(CC/C=C2\c3ccccc3Sc3ccc(Cl)cc32)CC1,T 10350,,25 µg/mL
CCCCSc1ncnc2ccccc12,D 5/93,,32 µM
C=C[C@@](C)(CC[C@H]1C(=C)CC[C@H]2C(C)(C)[C@@H](OC(C)=O)CC[C@]12C)OC(C)=O,,,>100 µg/mL
CCCCCCOC1Oc2ccc(Cl)cc2C(=O)/C1=C\Nc1ccc(C(=O)O)c(O)c1,MY 80/72,,50 µg/mL
Cc1ccc(/C=N/N=C(/N)c2ccccn2)cc1,,,32 µg/mL
C(=C\c1ccccc1)/CNc1cccc(CN2CCOCC2)c1,103317,,32 µg/mL
CCN(CC)CCOc1ccc(NC(=S)Nc2ccc(OCC(C)C)cc2)cc1,299,,62.5 µg/mL
CN1CCN(Cc2cccc(NC/C=C/c3ccccc3)c2)CC1,103317,,32 µg/mL
CCCCCCSc1cc(C(N)=O)cc(SCC)n1,80/72,,250 µM
Ic1ccc(-n2nnnc2SSc2nnnn2-c2ccc(I)cc2)cc1,80/72,,>1000 µM
CCOC1Oc2ccccc2C(=O)/C1=C\Nc1ccc(O)c(C(=O)O)c1,MY 80/72,,>100 µg/mL
Clc1ccc(-n2nnnc2SSc2nnnn2-c2ccc(Cl)cc2)cc1,80/72,,500 µM
CCCCCCSc1cc(C(N)=S)cc(SCC)n1,80/72,,60 µM
COc1cc(/C=N/N=C(\N)c2ccccn2)cc(OC)c1OC,,,256 µg/mL
COc1ccc(CSc2nnn(-c3ccc(Br)cc3)n2)cc1,CNCTC MY330/88,,32 µM
O=C(N[C@@H](Cc1ccccc1)c1cnc(-c2ccc([N+](=O)[O-])cc2)[nH]1)OCc1ccccc1,MY330/88,14 d,>62.5 µM
CCOC1Oc2ccc(Cl)cc2C(=O)/C1=C\Nc1cccc(C(=O)O)c1O,MY 80/72,,100 µg/mL
C(/C=C/c1ccccc1)=Nc1ccccc1CN1CCOCC1,103317,,16 µg/mL
CN(C)CC/C=C1/c2ccccc2Sc2ccc(Cl)cc21,T 10350,,25 µg/mL
N/C(=N\N=C\c1nc2ccccc2o1)c1cnccn1,,,>16 µg/mL
CO[C@H]1/C=C/O[C@@]2(C)Oc3c(C)c(O)c4c(O)c(cc(O)c4c3C2=O)NC(=O)/C(C)=C\C=C\[C@H](C)[C@H](O)[C@@H](C)[C@@H](O)[C@@H](C)[C@H](OC(C)=O)[C@@H]1C,Losanna 617,,2 µg/mL
CC(C)[C@H](NC(=O)OCc1ccccc1)c1cnc(-c2ccc([N+](=O)[O-])cc2)[nH]1,MY330/88,21 d,>125 µM
C(/C=C/c1ccccc1)=Nc1cccc(Cn2ccnc2)c1,103317,,8 µg/mL
NNC(=O)c1ccncc1,299,,7.5 µg/mL
O=C(Nc1ccccc1CN1CCOCC1)c1ccc(-c2ccccc2)cc1,103317,,>16 µg/mL
Cc1ccc2nc(SCc3ccc([N+](=O)[O-])cc3[N+](=O)[O-])[nH]c2c1,MY330/88,,62 µM
O=C(Nc1ccccc1CN1CCOCC1)c1ccc(Cl)cc1,103317,,>16 µg/mL
NC(=O)c1cnc(Cl)cn1,49601,,32 µg/mL
CCCCCCCSc1cc(C(N)=O)cc(Br)n1,80/72,,>1000 µM
CC(C)CSc1ncnc2ccccc12,D 5/93,,125 µM
Cc1ccc2nc(SCc3ccccc3)[nH]c2c1,MY330/88,,>62 µM
O=C(/C=C/c1ccccc1)Nc1ccccc1CN1CCOCC1,103317,,>16 µg/mL
Cc1ccc(CSc2nnn(-c3ccc(C)cc3)n2)cc1,CNCTC MY330/88,,62.5 µM
Cc1ccc(CSc2nc3ccc(C)cc3[nH]2)cc1,MY330/88,,32 µM
COc1ccc(CSc2nnn(-c3ccc(Cl)cc3)n2)cc1,CNCTC MY330/88,,62.5 µM
N/C(=N\N=C\c1ccncc1)c1ccccn1,,,>16 µg/mL
CN1CCN(Cc2ccccc2NC/C=C/c2ccccc2)CC1,103317,,16 µg/mL
N/C(=N\N=C\c1ccccn1)c1ccccn1,,,>16 µg/mL
O=C(Nc1cccc(Cn2ccnc2)c1)c1ccc(Cl)cc1,103317,,>16 µg/mL
N/C(=N/N=C/c1ccc(Br)cc1)c1ccccn1,,,128 µg/mL
CCCCCCCSc1cc(C(N)=S)cc(SCCCCCC)n1,80/72,,250 µM
CN1CCN(Cc2ccc(NC(=O)c3ccc(Cl)cc3)cc2)CC1,103317,,8 µg/mL
CC1=CCC[C@@H]2[C@@](C)(CC/C(C)=C/CO)[C@H](C)CC[C@@]12C,,,>100 µg/mL
CCCCCCCOc1cccc(NC(=O)OCCN2CCCCCC2)c1,MY330/88,,16 µM
CCCCCCCCSc1cc(C(N)=S)cc(Br)n1,80/72,,250 µM
OCCN1CCN(CC/C=C2\c3ccccc3Sc3ccc(C(F)(F)F)cc32)CC1,T 10350,,25 µg/mL
CCSc1cc(C(N)=S)cc(Cl)n1,80/72,,250 µM
N/C(=N\N=C\c1cc2ccccc2s1)c1cnccn1,,,>16 µg/mL
CCCCCCCSc1cc(C(N)=S)cc(Br)n1,80/72,,125 µM
CC1(C)Nc2ccc(Cl)cc2C(=S)N1c1cccc(Cl)c1,MY330/88,,125 µg/mL
O=C(OCc1ccccc1)N1CCC[C@H]1c1cnc(-c2ccc([N+](=O)[O-])cc2)[nH]1,MY330/88,14 d,>250 µM
C[C@@H]1CC[C@H]2C(C(=O)O)=CCC[C@@H]2[C@@]1(C)CCc1ccoc1,,,>100 µg/mL
O=C(Nc1ccccc1Cn1ccnc1)c1ccc(Cl)cc1,103317,,>16 µg/mL
Cc1ccc2nc(SCc3c(F)cccc3[N+](=O)[O-])[nH]c2c1,MY330/88,,125 µM
C[C@@H](NC(=O)OCc1ccccc1)c1cnc(-c2ccccc2)[nH]1,MY330/88,21 d,250 µM
CCCCCCCCOc1ccc(NC(=O)OCC[NH+]2CCCC2)cc1,MY330/88,,16 µM
C(=C\c1ccccc1)/CNc1ccccc1Cn1ccnc1,103317,,1 µg/mL
CCCOc1ccccc1NC(=O)OCCN(C)C,MY330/88,,500 µM
CN1CCN(Cc2ccc(N=C/C=C/c3ccccc3)cc2)CC1,103317,,16 µg/mL
c1ccc(CSc2nnn(-c3ccccc3)n2)cc1,CNCTC MY330/88,,32 µM
O=C(OCc1ccccc1)N1CCC[C@H]1c1cnc(-c2ccccc2)[nH]1,MY330/88,21 d,>500 µM
CCCCCCSc1cc(C(N)=S)cc(Cl)n1,80/72,,60 µM
Cc1ccc2nc(SCc3ccc(F)c(F)c3)[nH]c2c1,MY330/88,,>62 µM
Cc1ccc(-n2nnnc2SSc2nnnn2-c2ccc(C)cc2)cc1,80/72,,>1000 µM
COc1cc(/C=N/N=C(\N)c2ccccn2)cc(OC)c1,,,256 µg/mL
CCCCCCCCSc1cc(C(N)=S)cc(SCCCCCC)n1,80/72,,250 µM
CC(C)c1ccc(N2C(=S)c3cc(Cl)ccc3NC2(C)C)cc1,MY330/88,,>62.5 µg/mL
c1ccc(CCSc2ncnc3ccccc23)cc1,CNCTC MY66/72,,32 µM

For reference, 7 entries again:

smiles	strain or isolate	setting	value
CCOC1Oc2ccccc2C(=O)/C1=C\Nc1ccc(O)c(C(=O)O)c1	MY 80/72		>100 µg/mL
Ic1ccc(-n2nnnc2SSc2nnnn2-c2ccc(I)cc2)cc1	80/72		>1000 µM
CCCCCCCOc1ccc(NC(=O)OCCN2CCCCCC2)cc1	MY330/88		8 µM
Cc1ccc2nc(SCc3ccccc3)[nH]c2c1	MY330/88		>62 µM
CCCCCCCSc1cc(C(N)=S)cc(SCCCCCC)n1	80/72		250 µM
COc1cc(/C=N/N=C(\N)c2ccccn2)cc(OC)c1			256 µg/mL
CCOC1Oc2ccc(C)cc2C(=O)/C1=C\Nc1ccc(C(=O)O)c(O)c1	MY 80/72		25 µg/mL